Values quoted from earlier work as cited in patent US20160331779A1 (priority 2015, published 2016).

System: Aspergillus flavus
Details: cited from earlier work

[Na+].[O-]Cl [hypochlorite, sodium hypochlorite]
NaOCl concentration at which cultures of Aspergillus flavus and aflatoxins were destroyed: 7 mM
